Test results: PubChem BioAssay AID547 (Emory University Molecular Libraries Screening Center, 2006)
“And” between values parts separate entries of the source, which are not always exact repeats. Equal values may be shown once. The entries are a selection whose mix differs from that of the whole data set. The source made the active and inactive calls. How the calls were made is not given here.

target: Chaperone protein DnaK (Escherichia coli (strain K12)) (UniProt P0A6Y8); test: E. coli DnaK chaperone inhibitors, primary screen, luminescence, E. coli K12 (AID 547); details: DnaK chaperone assay, luminescence read-out; stronger effect = lower value;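 further: tested at 10 µM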

Question: For `CN(C(=O)Cc1ccc(Cl)c(Cl)c1)[C@H]1CCCC[C@@H]1N1CCCC1`, which luminescence is on record?
Answer: inactive: 2.8e+06 cps and inactive: 2.3e+06 cps

Question: For `CN(C(=O)Cc1ccc(Cl)c(Cl)c1)[C@@H]1CCCC[C@@H]1N1CCCC1`, which luminescence is on record?
Answer: inactive: 2.3e+06 cps

Question: How did the luminescence turn out when `CN(C(=O)Cc1ccccc1)[C@@H]1CC[C@]2(CCCO2)C[C@H]1N1CCCC1` was run?
Answer: inactive: 2.3e+06 cps

Question: How did the luminescence turn out when `CN(C(=O)Cc1ccc(Cl)c(Cl)c1)[C@@H]1CC[C@]2(CCCO2)C[C@H]1N1CCCC1` was run?
Answer: inactive: 2.5e+06 cps

Question: How did the luminescence turn out when `CN(CCCl)Cc1cc(Cl)c(NC2=NCCN2)c(Cl)c1` was run?
Answer: inactive: 3e+06 cps

Question: For `CN(C(=O)Cc1ccc(Cl)c(Cl)c1)[C@@H]1CCCC[C@H]1N1CCCC1`, which luminescence is on record?
Answer: inactive: 2.2e+06 cps
